Data on two molecules can be found in US20190359693A1.

The assay concerns the target hemagglutinin (HA) of influenza A/Mississippi/03/01 274H (H1N1) (influenza A virus). As to the kind of experiment: cell-based or functional assay.

B1: MD3609 (Fc fusion)
chain: EVQLVESGGGLVQPGGSLRLSCAVSISIFDIYAMDWYRQAPGKQRDLVATSFRDGSTNYADSVKGRFTISRDNAKNTLYLQMNSLKPEDTAVYLCHVSLYRDPLGVAGGMGVYWGKGALVTVSSGGGGSGGGGSEVQLVESGGGLVQAGGSLKLSCAASGRTYAMGWFRQAPGKEREFVAHINALGTRTYYSDSVKGRFTISRDNAKNTEYLEMNNLKPEDTAVYYCTAQGQWRAAPVAVAAEYEFWGQGTQVTVSSGGGGSGGGGSEVQLVESGGGLVQPGGSLRLSCAATGFTLENKAIGWFRQTPGSEREGVLCISKSGSWTYYTDSMRGRFTISRDNAENTVYLQMDSLKPEDTAVYYCATTTAGGGLCWDGTTFSRLASSWGQGTQVTVSSGGGGSGGGGSEVQLVESGGGLVQPGGSLKLSCAASGFTFSTSWMYWLRQAPGKGLEWVSVINTDGGTYYADSVKDRFTISRDNAKDTLYLQMSSLKSEDTAVYYCAKDWGGPEPTRGQGTQVTVSSAAA[gap - human IgG1 Fc]
B1: the Average neutralization titers stood at 6.5 nM.

B2: MD2642 (Fc fusion)
chain: EVQLVESGGGLVQPGGSLRLSCAVSISIFDIYAMDWYRQAPGKQRDLVATSFRDGSTNYADSVKGRFTISRDNAKNTLYLQMNSLKPEDTAVYLCHVSLYRDPLGVAGGMGVYWGKGALVTVSSGGGGSGGGGSEVQLVESGGGLVQAGGSLKLSCAASGRTYAMGWFRQAPGKEREFVAHINALGTRTYYSDSVKGRFTISRDNAKNTEYLEMNNLKPEDTAVYYCTAQGQWRAAPVAVAAEYEFWGQGTQVTVSS[gap - human IgG1 Fc]GGGGSGGGGSEVQLVESGGGLVQPGGSLRLSCAATGFTLENKAIGWFRQTPGSEREGVLCISKSGSWTYYTDSMRGRFTISRDNAENTVYLQMDSLKPEDTAVYYCATTTAGGGLCWDGTTFSRLASSWGQGTQVTVSSGGGGSGGGGSEVQLVESGGGLVQPGGSLKLSCAASGFTFSTSWMYWLRQAPGKGLEWVSVINTDGGTYYADSVKDRFTISRDNAKDTLYLQMSSLKSEDTAVYYCAKDWGGPEPTRGQGTQVTVSS
Take B2: the Average neutralization titers stood at 5.3 nM.
